Measured values from several laboratories, pooled; numbers as filed in NIAID ChemDB.

Shared fields: tests in culture; species: HIV-2; endpoint: EC50

Blank or dashed fields: not listed here. Neighbouring rows are from separate reports. ECn: concentration that inhibits the pathogen or its effect by n%.

| compound | read by | strain or isolate | cells | value |
|---|---|---|---|---|
| O=S(=O)(Cc1ccccc1I)c1cccc[n+]1[O-] | syncytia | EHO | CEM | 12 µg/mL |
| C=Cn1cc(C(=O)O)c(=O)c2ccc(N3CCN(c4ccccn4)CC3)cc21 | MTT | ROD | MT-4 | >0.31 µM |
| CN(C)c1c(N=Nc2ccc(Cl)cc2)c(N)nc(=O)n1C | MTT | ROD | MT-4 | >28.24 µM |
| O=S(=O)(Cc1c(Cl)c(Cl)c(Cl)c(Cl)c1Cl)c1cccc[n+]1[O-] | β-galactosidase | ROD | MAGI | 2 µg/mL |
| COc1ccc(N(C)C(=O)[C@H](Cc2cc(F)cc(F)c2)NC(=O)CN2CCN(S(=O)(=O)c3cccc(N)c3)CC2=O)cc1 | MTT | ROD | MT-4 | 0.11 µM |
| Nn1cc(C(=O)O)c(=O)c2cc(O)c(N3CCN(c4cccc(C(F)(F)F)c4)CC3)cc21 | MTT | ROD | MT-4 | >20.96 µM |
| CCOC(=O)c1ccc(NC(=O)COc2nsnc2-c2cccc3ccccc23)cc1 | MTT | ROD | MT-4 | >85 µM |
| CC(C)(C)[Si](C)(C)OC[C@H]1O[C@@H](n2ccc(=O)[nH]c2=O)[C@H](O[Si](C)(C)C(C)(C)C)/C1=C/CO | cytopathic effect / trypan blue | ROD | MT-4 | >2 µM |
| COc1ccc(N(C)C(=O)[C@H](Cc2cc(F)cc(F)c2)NC(=O)CN2CCN(S(=O)(=O)c3cccc(Cl)c3)CC2=O)cc1 | MTT | ROD | MT-4 | 0.44 µM |
| C#C[C@H](O)C1=C[C@@H](n2cnc3c(N)ncnc32)[C@H](O)[C@@H]1O | cytopathic effect |  | CEM | >40 µg/mL |
| Nc1nc(N)n(CCOCP(=O)(O)O)c(=O)c1Cc1ccccc1 | syncytia | ROD | CEM | ≥300 µM |
| Cc1cc(C(Cl)c2ccc(C(C)(C)C)cc2)nc(Nc2ccc(C#N)cc2)n1 | cytopathic effect | ROD | MT-4 | 31.9 µM |
| O=c1c2nc(-c3ccccn3)c(-c3ccccn3)nc2nc2scc(-c3ccccc3)n12 | cytopathic effect / MTT / absorbance | ROD | MT-4 | >2.52 µM |
| Cc1cnc(Nc2ccc(C#N)cc2)nc1C(Cl)c1ccc(Br)cc1 | cytopathic effect | ROD | MT-4 | 10.3 µM |
| O=C1c2sc(-c3ccccc3)cc2N(COCCO)S(=O)(=O)N1Cc1ccccc1 |  |  | CEM | >400 µg/mL |
| COC(O)[C@@H]1OC12[C@@H](CO[Si](C)(C)C(C)(C)C)O[C@@H](n1cc(C)c(=O)[nH]c1=O)[C@@H]2O[Si](C)(C)C(C)(C)C | cytopathic effect / trypan blue | ROD | MT-4 | >10 µM |
| Nc1nc(N)c(CC(=O)O)c(OCCOCP(=O)(O)O)n1 | syncytia | ROD | CEM | ≥300 µM |
| N#Cc1ccc(Cn2cc(COc3nsnc3-c3cccc4ccccc34)nn2)cc1 | MTT | ROD | MT-4 | >13 µM |
| N#Cc1ccc(Nc2nccc(C(Cl)c3ccc(Br)cc3)n2)cc1 | cytopathic effect | ROD | MT-4 | 32.5 µM |
| Fc1ccccc1Cn1cc(COc2nsnc2-c2cccc3ccccc23)nn1 | MTT | ROD | MT-4 | >79 µM |
| NC1=NC(N)c2nc(-c3ccccn3)c(-c3ccccn3)nc2N1 | cytopathic effect / MTT / absorbance | ROD | MT-4 | >10.52 µM |
| Cc1c(N)nc(N)n(CCOCP(=O)(O)O)c1=O | syncytia | ROD | CEM | ≥300 µM |
| O=C1c2cc(-c3ccccc3)sc2N(Cc2ccccc2)S(=O)(=O)N1COCc1ccccc1 |  |  | CEM | >400 µg/mL |
| COc1ccc(N(C)C(=O)[C@H](Cc2cc(F)cc(F)c2)NC(=O)CN2CCN(S(=O)(=O)c3cccc(NC(C)=O)c3)CC2=O)cc1 | MTT | ROD | MT-4 | 0.03 µM |
| CCOC(=O)CC1(O)[C@@H](CO[Si](C)(C)C(C)(C)C)O[C@@H](n2ccc(=O)[nH]c2=O)[C@@H]1O[Si](C)(C)C(C)(C)C | cytopathic effect / trypan blue | ROD | MT-4 | >10 µM |
| Nn1cc(C(=O)O)c(=O)c2ccc(N3CCN(c4ccccn4)CC3)cc21 | MTT | ROD | MT-4 | 3.01 µM |
| Cn1c(N2CCNCC2)c(N=Nc2ccc(Cl)cc2)c(N)nc1=O | MTT | ROD | MT-4 | >3.03 µM |
| Nc1ccn([C@H]2CC[C@@H](CO)O2)c(=O)n1 | cytopathic effect / XTT | ROD | CEM + CEM-SS | >0.03 µM |
| CCOC(=O)Cc1c(N)nc(N)n(CCOCP(=O)(O)O)c1=O | syncytia | ROD | CEM | 110 µM |
| Cc1ccc(C)c(CS(=O)c2ccc(Cl)c[n+]2[O-])c1 | syncytia | ROD | CEM | 2 µg/mL |
| COc1ccc(N(C)C(=O)[C@H](Cc2cc(F)cc(F)c2)NC(=O)CN2CCN(S(=O)(=O)c3ccccc3N)CC2=O)cc1 | MTT | ROD | MT-4 | 0.14 µM |
| Cc1cn([C@H]2C=C[C@@H](CO)O2)c(=O)[nH]c1=O |  | ROD | CEM + CEM TK- | 25 µM |
| COc1ccc(N(C)C(=O)[C@H](Cc2cc(F)cc(F)c2)NC(=O)CN2CCN(S(=O)(=O)c3ccccc3)CC2=O)cc1 | MTT | ROD | MT-4 | 0.1 µM |
| Cc1cn([C@@H]2O[C@H](CO[Si](C)(C)C(C)(C)C)C3(O[C@H]3C(N)=O)[C@H]2O[Si](C)(C)C(C)(C)C)c(=O)[nH]c1=O | cytopathic effect / trypan blue | ROD | MT-4 | >2 µM |
| O=C1c2cc(-c3ccccc3)sc2N(Cc2ccccc2)S(=O)(=O)N1CCOCCO |  |  | CEM | >400 µg/mL |
| Clc1ccc(Cn2cc(COc3nsnc3-c3cccc4ccccc34)nn2)cc1 | MTT | ROD | MT-4 | >115 µM |
| N#Cc1ccc(Nc2nccc(C(Br)c3ccccc3)n2)cc1 | cytopathic effect | ROD | MT-4 | 69 µM |
| C=C[C@H](O)C1=C[C@@H](n2cnc3c(N)ncnc32)[C@H](O)[C@@H]1O | cytopathic effect |  | CEM | >200 µg/mL |
| Nc1ccn([C@@H]2CS[C@H](CO)O2)c(=O)n1 | MTT | ROD | MT-4 | 9.7 µM |
| Nc1nc2c(ncn2COCCO)c(=O)[nH]1 |  |  | CEM | >400 µg/mL |
| NC1N=CNc2nc(-c3ccccn3)c(-c3ccccn3)nc21 | cytopathic effect / MTT / absorbance | ROD | MT-4 | >12.1 µM |
| COc1ccc(-c2cc(N)nc(=O)n2C)cc1OC | MTT | ROD | MT-4 | >14.23 µM |
| Nc1cc2c(=O)c(C(=O)O)cn(N)c2cc1N1CCN(c2ccccn2)CC1 | MTT | ROD | MT-4 | 1.33 µM |
| C=C[C@@H](O)C1=C[C@@H](n2cnc3c(N)ncnc32)[C@H](O)[C@@H]1O | cytopathic effect |  | CEM | >40 µg/mL |
| Clc1nccc2nc(-c3cccs3)cnc12 | cytopathic effect / MTT / absorbance | ROD | MT-4 | >5.23 µM |
| COc1ccc(-c2ccc(N=Nc3c(N)nc(=O)n(C)c3N(C)C)cc2)cc1OC | MTT | ROD | MT-4 | >10.42 µM |
| C=Cn1cc(C(=O)O)c(=O)c2ccc(N3CCN(c4cccc(C(F)(F)F)c4)CC3)cc21 | MTT | ROD | MT-4 | 0.55 µM |
| COc1ccc(N(C)C(=O)[C@H](Cc2cc(F)cc(F)c2)NC(=O)CN2CCN(S(=O)(=O)c3ccc(N)cc3)CC2=O)cc1 | MTT | ROD | MT-4 | 0.05 µM |
| Nc1nc(N)n(CCOCP(=O)(O)O)c(=O)c1CC(=O)O | syncytia | ROD | CEM | ≥300 µM |
| Cn1c(-c2ccc(F)cc2)c(N=Nc2ccc(-c3ccc(F)cc3)cc2)c(N)nc1=O | MTT | ROD | MT-4 | >66.6 µM |

Repeating the first 7 entries:

| compound | read by | strain or isolate | cells | value |
|---|---|---|---|---|
| O=S(=O)(Cc1ccccc1I)c1cccc[n+]1[O-] | syncytia | EHO | CEM | 12 µg/mL |
| C=Cn1cc(C(=O)O)c(=O)c2ccc(N3CCN(c4ccccn4)CC3)cc21 | MTT | ROD | MT-4 | >0.31 µM |
| CN(C)c1c(N=Nc2ccc(Cl)cc2)c(N)nc(=O)n1C | MTT | ROD | MT-4 | >28.24 µM |
| O=S(=O)(Cc1c(Cl)c(Cl)c(Cl)c(Cl)c1Cl)c1cccc[n+]1[O-] | β-galactosidase | ROD | MAGI | 2 µg/mL |
| COc1ccc(N(C)C(=O)[C@H](Cc2cc(F)cc(F)c2)NC(=O)CN2CCN(S(=O)(=O)c3cccc(N)c3)CC2=O)cc1 | MTT | ROD | MT-4 | 0.11 µM |
| Nn1cc(C(=O)O)c(=O)c2cc(O)c(N3CCN(c4cccc(C(F)(F)F)c4)CC3)cc21 | MTT | ROD | MT-4 | >20.96 µM |
| CCOC(=O)c1ccc(NC(=O)COc2nsnc2-c2cccc3ccccc23)cc1 | MTT | ROD | MT-4 | >85 µM |